A mixed list of measured activities; the numbers were collected in NIAID ChemDB.

All rows: tests in culture; organism: HIV-1; cell line: MT-4; measure: EC50

Rows are shuffled and stem from different studies.

compound | strain | mutations | read by | conditions | result
COc1cccc2c1nc(-c1ccccc1F)n2Cc1cc(F)ccc1F | IIIB | - | - | - | 0.003 µg/mL
CN1c2ccccc2C2C1C=C(C#N)C(=O)N2c1ccc(-c2ccco2)cc1 | LAI | - | cytopathic effect / MTT | - | 1–32 µM
COc1cccc2c1nc(-c1ccccc1F)n2Cc1ccc(Cl)s1 | IIIB | - | - | - | 0.063 µg/mL
Cc1cccc(C)c1OCC(=O)N[C@@H](Cc1ccccc1)[C@H](O)CN(CC(C)C)S(=O)(=O)c1ccc2nc(N)n(C)c2c1 | LAI WT | - | cytopathic effect / MTT | - | 0.02 µM
Cn1c2ccccc2c2c1cc(C#N)c(=O)n2-c1ccc([N+](=O)[O-])cc1 | J | RT-I31L L100I K103N E138G Y181C L214F | cytopathic effect / MTT | - | 0.13 µM
N#Cc1cc(Cl)cc(Oc2c(Br)ccc(CC(=O)Nc3ccc(S(N)(=O)=O)cc3Cl)c2F)c1 | - | Y181I | - | - | 0.0008 µM
CC(C)CN(C[C@@H](O)[C@H](Cc1ccccc1)NC(=O)[C@H](C(C)C)N1CC(=O)N(Cc2ccccc2)C1=O)S(=O)(=O)c1ccc(/C=N/O)cc1 | - | - | cytopathic effect / MTT | 50% human serum | 0.025 µM
CCc1c(Cc2cc(C)cc(C)c2)n(COCC#Cc2ccc(NC(=O)CBr)cc2)c(=O)[nH]c1=O | IIIB | EFV-resistant (K103R V179D P225H) | MTT | - | 7 µM
CCC(C)[C@@H](C(=O)N[C@@H](Cc1ccccc1)[C@H](O)CN(CC(C)C)S(=O)(=O)c1ccc(/C=N/O)cc1)N1CCN(Cc2c(C)ccnc2C)C1=O | A17 (LPV-resistant) | PR-L10F V32I M46I I47V Q68E I84V | cytopathic effect / MTT | - | 0.006 µM
CC(C)CN(C[C@@H](O)[C@H](Cc1ccccc1)NC(=O)O[C@H]1CCOC1)S(=O)(=O)c1ccc2ncn(CCc3ccccc3)c2c1 | LAI WT | - | cytopathic effect / MTT | - | 0.02 µM
COc1cccc2c1nc(-c1ccccc1F)n2CCC=C(C)C | IIIB | - | - | - | 0.03 µg/mL
Cc1nc2c(c(C)c(C)n2CC2CC2)c(-c2ccc(Cl)cc2)c1C(OC(C)(C)C)C(=O)O | IIIB | - | MTT | - | 0.033 µM
COP(=O)(c1cc(C)cc(CCC#N)c1)c1c(C(N)=O)[nH]c2ccc(Cl)cc12 | BH10 | K103N/Y181C | cytopathic effect | - | 0.0066 µM
COc1cccc2c1nc(-c1ccccc1F)n2C(=O)OC(C)C | IIIB | - | - | - | 0.0231 µg/mL
Cc1cc(C#N)cc(C)c1Oc1nc(NC2CCN(Cc3ccc(S(N)(=O)=O)cc3)CC2C(=O)O)nc2ccsc12 | IIIB | NNRTI-resistant (RT F227L V106A) | MTT | - | 2.53 µM
CCOCn1c(Cc2cccc(F)c2)c(C(C)C)c(=O)[nH]c1=O | EFV-resistant (K103R V179D P225H) | - | MTT | - | 56 µM
Cc1cc(/C=C/C#N)cc(C)c1Oc1nc(NC2CCN(Cc3cccnc3)CC2)nc2ccsc12 | IIIB | NNRTI-resistant (RT Y181C) | MTT | - | 0.00606 µM
CCc1c(Cc2cc(C)cc(C)c2)n(COCC#Cc2cccc(C=O)c2)c(=O)[nH]c1=O | IIIB | WT | MTT | - | 0.02 µM
Cc1cn([C@H]2C=C[C@@H](CO)O2)c(=O)[nH]c1=O | HXB2 | RT-K65R/T215Y | cytopathic effect / MTT | - | 0.48 µM
CC1(C)CC=C(c2cn(-c3nccc(C(=O)NC4CCC(N5CC6CCC(C5)O6)CC4)n3)c3ccc(F)c([C@H](OC(C)(C)C)C(=O)O)c23)CC1 | NL4-3 | - | luminescence | - | 0.0058 µM
CCc1c(Cc2cc(C)cc(C)c2)n(COCC#Cc2ccc(C=O)cc2)c(=O)[nH]c1=O | IIIB | EFV-resistant (K103R V179D P225H) | MTT | - | 14 µM
Cc1cc(/C=C/C#N)cc(C)c1Oc1nc(NC2CCN(Cc3cccc(C(N)=O)c3)CC2)nc2ccsc12 | RES056 | - | MTT | - | 0.0438 µM
O=c1c2ccccc2sn1/N=C/c1ccc(O)cc1 | - | K103N + Y181C | MTT | - | >18 µM
Cc1nc2c(c(C)c(C)n2CC2(C#N)CC2)c(-c2ccc(Cl)cc2)c1[C@H](OC(C)(C)C)C(=O)O | IIIB | - | MTT | - | 0.00167 µM
O=c1c2ccccc2sn1/N=C/c1ccc(O)cc1O | - | Y181C | MTT | - | >21 µM
Cc1nc2c(c(C)c(C)n2Cc2ccnc(F)c2)c(-c2ccc(Cl)cc2)c1[C@H](OC(C)(C)C)C(=O)O | IIIB | - | MTT | - | 0.0145 µM
CC(C)CN(C[C@@H](O)[C@H](Cc1ccccc1)NC(=O)O[C@H]1CO[C@H]2OCC[C@H]21)S(=O)(=O)c1ccc2c(c1)ncn2CCN(C)C | LAI WT | - | cytopathic effect / MTT | - | 0.316 µM
Cc1nc2ccccc2c(-c2cc(F)c3c(c2C)CCCO3)c1[C@H](OC(C)(C)C)C(=O)O | NL4-3 | Y143C | luminescence | - | 0.018 µM
COc1cc(/C=N/n2sc3ccccc3c2=O)ccc1O | - | K103N + Y181C | MTT | - | >15 µM
CCC(C)[C@@H](C(=O)N[C@@H](Cc1ccccc1)[C@H](O)CN(CC(C)C)S(=O)(=O)c1ccc(/C=N/O)cc1)N1CCN(Cc2ccncc2)C1=O | A17 (LPV-resistant) | PR-L10F V32I M46I I47V Q68E I84V | cytopathic effect / MTT | - | 0.008 µM
C=CCOCn1c(Cc2cccc(C(F)(F)F)c2)c(CC)c(=O)[nH]c1=O | EFV-resistant (K103R V179D P225H) | - | MTT | - | >77 µM
CCOC(=O)c1ccc(CN2CCC(Nc3nc(Oc4c(C)cc(/C=C/C#N)cc4C)c4sccc4n3)CC2)cc1 | IIIB | NNRTI-resistant (RT Y188L) | MTT | - | 0.163 µM
N#Cc1cc2[nH]c3ccccc3c2n(-c2ccc([N+](=O)[O-])cc2)c1=O | I | RT-K101E K103N | cytopathic effect / MTT | - | 0.79 µM
Cc1cc(C#N)cc(C)c1Oc1nc(NC2CCC(NCc3ccc(O)cc3)CC2)nc2ccsc12 | IIIB | NNRTI-resistant (RT Y188L) | MTT | - | >20.1 µM
C#CCOCn1c(Cc2c(F)c(F)cc(F)c2F)c(CC)c(=O)[nH]c1=O | EFV-resistant (K103R V179D P225H) | - | MTT | - | >5 µM
CC(C)[C@H](NC(=O)OCc1ccccn1)C(=O)N[C@@H](Cc1ccccc1)[C@@H](O)C[C@H](Cc1ccccc1)NC(=O)OCc1cccnc1 | NL4-3 | PR-L10R L63P V82T | p24 | - | <3 µM
C=CCOCn1c(Cc2c(F)c(F)cc(F)c2F)c(CC)c(=O)[nH]c1=O | A17 | K103N + Y181C | MTT | - | 44 µM
CN1c2ccccc2C2C1C=CC(=O)N2c1ccc(/C(N)=N/O)cc1 | LAI | - | cytopathic effect / MTT | - | 1–32 µM
CCc1c(Cc2cc(C)cc(C)c2)n(COC/C(Br)=C(\Br)c2ccccc2)c(=O)[nH]c1=O | IIIB | K103N + Y181C | MTT | - | 11 µM
Cc1ccc2sn(/N=C/c3cccc(F)c3)c(=O)c2c1 | - | Y181C | MTT | - | >30 µM
Cc1cc(/C=C/C#N)cc(C)c1Oc1nc(NC2CCN(Cc3ccncc3)CC2)nc2ccsc12 | IIIB | NNRTI-resistant (RT Y181C) | MTT | - | 0.00579 µM
C=CCOCn1c(Cc2cccc(C(F)(F)F)c2)c(C(C)C)c(=O)[nH]c1=O | A17 | K103N + Y181C | MTT | - | 24 µM
Cc1cccc(C)c1OCC(=O)N[C@@H](Cc1ccccc1)[C@H](O)CN(CC(C)C)S(=O)(=O)c1ccc2ncn(C)c2c1 | LAI WT | - | cytopathic effect / MTT | - | 0.063 µM
COc1ccc(/C=N/n2sc3ccccc3c2=O)cc1 | - | Y181C | MTT | - | >19 µM
CCC(C)[C@@H](C(=O)N[C@@H](Cc1ccccc1)[C@H](O)CN(CC(C)C)S(=O)(=O)c1ccc(/C=N/O)cc1)N1CCN(Cc2cccc(C)n2)C1=O | - | - | cytopathic effect / MTT | 50% human serum | 0.024 µM
Cc1ccc2sn(/N=C/c3ccc(O)cc3)c(=O)c2c1 | - | Y181C | MTT | - | >23 µM
CCC(C)[C@@H](C(=O)N[C@@H](Cc1ccccc1)[C@H](O)CN(CC(C)C)S(=O)(=O)c1ccc(/C=N/O)cc1)N1CC(=O)N(Cc2ccccn2)C1=O | - | - | cytopathic effect / MTT | 50% human serum | 0.014 µM
Cc1nc2c(c(C)c(C)n2Cc2ccc(F)cc2)c(-c2ccc(Cl)cc2)c1C(OC(C)(C)C)C(=O)O | IIIB | - | MTT | - | 0.147 µM

A second listing of 7 rows from above:

compound | strain | mutations | read by | conditions | result
Cc1cc(/C=C/C#N)cc(C)c1Oc1nc(NC2CCN(Cc3cccnc3)CC2)nc2ccsc12 | IIIB | NNRTI-resistant (RT Y181C) | MTT | - | 0.00606 µM
N#Cc1cc2[nH]c3ccccc3c2n(-c2ccc([N+](=O)[O-])cc2)c1=O | I | RT-K101E K103N | cytopathic effect / MTT | - | 0.79 µM
Cc1cc(C#N)cc(C)c1Oc1nc(NC2CCC(NCc3ccc(O)cc3)CC2)nc2ccsc12 | IIIB | NNRTI-resistant (RT Y188L) | MTT | - | >20.1 µM
Cc1nc2c(c(C)c(C)n2Cc2ccnc(F)c2)c(-c2ccc(Cl)cc2)c1[C@H](OC(C)(C)C)C(=O)O | IIIB | - | MTT | - | 0.0145 µM
CCc1c(Cc2cc(C)cc(C)c2)n(COCC#Cc2ccc(C=O)cc2)c(=O)[nH]c1=O | IIIB | EFV-resistant (K103R V179D P225H) | MTT | - | 14 µM
Cn1c2ccccc2c2c1cc(C#N)c(=O)n2-c1ccc([N+](=O)[O-])cc1 | J | RT-I31L L100I K103N E138G Y181C L214F | cytopathic effect / MTT | - | 0.13 µM
CCc1c(Cc2cc(C)cc(C)c2)n(COCC#Cc2cccc(C=O)c2)c(=O)[nH]c1=O | IIIB | WT | MTT | - | 0.02 µM

ECn: concentration that inhibits the pathogen or its effect by n%. a–b is a range or a potency band. An empty or dashed field is not shown.